Patent publication US20230250134A1 (University of Washington, published 2023)

Legend:
[1] = target: SARS-COV-2 Spike glycoprotein (SARS-CoV-2, UniProt P0DTC2 14-1208); test: estimated Kd for Spike (avidity), Table 10
[2] = target: SARS-COV-2 Spike glycoprotein receptor binding domain (RBD) (SARS-CoV-2, UniProt P0DTC2 319-541)

B1: LCB1_v1.3_Mucin (designed binder)
chain: DKENILQKIYEIMKTLEQLGHAEASMQVSDLIYEFMKQGDERLLEEAERLLEEVERGGAKAKAKAKAKAKAKAKAKAK
**Q.** For B1, which Kd [1] is on record?
**A.** Its Kd is 0.1 nM.

**Q.** What about the Kd [2] of the same binder?
**A.** Its Kd is 0.2 nM.
